Our source for the ΔG values is US20220226282A1 (priority 2021, published 2022).

The target in this assay is BoNT/A LC (Clostridium botulinum, UniProt P0DPI0). The experiment in a line: Intrinsic tryptophan fluorescence quenching of BoNT/A LC. Type of assay: binding, C. botulinum.

The structures appear in SMILES notation.

Take `O=c1ccc2cc3c(-c4ccc([N+](=O)[O-])cc4)coc3cc2o1` [Compound 1, 3-(4-nitrophenyl)-7H-furo[3,2-g]chromen-7-one]: the ΔG was -6.02 kcal/mol (T 298 K) and -5.59 kcal/mol (T 310 K).
